Laboratory results reported in patent publication US9782422B2, “Treatment of conditions associated with mycotoxin exposure” (dated 2017).

Tests used:
IL-6 = IL-6 determination in Caco-2 supernatants; conditions: Caco-2 supernatants after DON
Caco-2 cells [1] = test: LDH cell viability assay; conditions: increasing concentrations of DON, 24 h; MTS and MTT similar; FIG. 7
[2] = test system: tight junction proteins occludin, claudin-1, claudin-4 and ZO-1 in Caco-2 cells; test: Localisation of tight junction proteins (immunofluorescence microscopy); conditions: DON 4.2 μM stimulated cells; from the cell membrane towards the inner cell; FIG. 9
IL-8 = IL-8 ELISA of Caco-2 supernatants; conditions: increasing dosages of DON; similar in apical chamber; FIG. 8
Caco-2 cells [3] = test: Luciferase yellow (LY) permeability assay, Caco-2 transwell; conditions: increasing concentrations DON, 24 h treatment; FIG. 6
TNF-α = TNF-α determination in Caco-2 supernatants; conditions: Caco-2 supernatants after DON
Caco-2 cells [4] = test: Transepithelial electrical resistance (TEER) assay, Caco-2 transwell; conditions: increasing concentrations of DON; FIG. 5

CC1=C[C@H]2O[C@@H]3[C@H](O)C[C@](C)([C@@]2(CO)[C@H](O)C1=O)[C@]31CO1
levels of IL-6 (IL-6): below the detection limit | cell viability (LDH assay) (Caco-2 cells [1]): unaltered cell viability | localisation of tight junction proteins (occludin, claudin-1, claudin-4, ZO-1) [2]: translocated | production of IL-8 into the basolateral chamber (IL-8): dose-dependent production | transport of luciferase yellow (LY) towards the basolateral chamber (Caco-2 cells [3]): significant increase | levels of TNF-α (TNF-α): below the detection limit | TEER of Caco-2 cells after DON incubation (Caco-2 cells [4]): dose-dependently reduced
